Results deposited as PubChem BioAssay AID504761 (Drosophila RNAi Screening Center, 2011).
The deposit covers about 22,000 reagents; below is an unselected part of those that have a named target and a result. Of all reagents, 116 (0.52%) were called active. 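Calls depend on retest data that are not deposited; infection was ranked per plate without normalising between plates; the unit of the infection score is not given.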 Raw values vary from plate to plate and are shown uncorrected. A number with no mark means an inactive call. A plus sign joins genes that one reagent is predicted to hit. Not all columns of the deposit are shown. No sequences are given here. Not stated in the record: the amount of reagent, the time to read-out.

Screen: 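Insect host genes that dengue virus relies on to spread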 (primary screen)
System: D.Mel-2 cells from Drosophila
Reagents: long dsRNA against Drosophila genes
Challenge: infection with dengue virus type 2; dose and infection time not stated
Measurement: 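Per well on two replicate plates, imaging gave the percent of cells positive for viral envelope protein, ranked by infection, and a nuclear count of cells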
Direction: infection score: higher = more virus-infected cells; cell count: higher = more cells in the well
Call rule: 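Very low infection ranking in both replicate wells (chance probability at most 0.065), then a retest showing infection dropped 1.5-fold or more at p below 0.05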
Calls: active = confirmed: knock-down lowers infection; inactive = not picked or not confirmed

target | dsRNA | infection score, replicate 1 | infection score, replicate 2 | cell count, replicate 1
Cul4 (Cullin 4) | DRSC07243 | 10.6 | 4.54 | 5539
Cul4 (Cullin 4) | DRSC27185 | 10.4 | 8.76 | 5506
CG11997 | DRSC14464 | 3.34 | 6.48 | 6375
CG11997 | DRSC26460 | 4.05 | 9.74 | 6377
Chmp1 (Charged multivesicular body protein 1) | DRSC10401 | 7.94 | 20.1 | 6256
Chmp1 (Charged multivesicular body protein 1) | DRSC25878 | 9.69 | 8.25 | 6488
sbr (small bristles) | DRSC19770 | 5.31 | 4.81 | 6397
sbr (small bristles) | DRSC20368 | 5.07 | 6.4 | 848
sbr (small bristles) | DRSC29803 | 12.9 | 10.6 | 3672
Pex3 (Peroxin 3) | DRSC10731 | 5.91 | 6.35 | 1744
mbl (muscleblind) | DRSC23188 | 1.92 | 7.66 | 6098
mbl (muscleblind) | DRSC28319 | 6.52 | 6.95 | 5769
Rpe (Ribulose-5-phosphate-3-epimerase) | DRSC06407 | 26.1 | 50.4 | 6522
VGlut (Vesicular glutamate transporter) | DRSC00733 | 5.25 | 14.3 | 6058
VGlut (Vesicular glutamate transporter) | DRSC21821 | 8.73 | 1.91 | 5932
AANATL5 (Arylalkylamine N-acetyltransferase-like 5) | DRSC05994 | 6.59 | 2.94 | 6042
CG33490 | DRSC10587 | 12.9 | 16.9 | 5334
Sox15 (Sox box protein 15) | DRSC07555 | 7.79 | 11 | 6957
Sox15 (Sox box protein 15) | DRSC28528 | 17.3 | 14.4 | 6501
Not10 (CCR4-NOT transcription complex subunit 10) | DRSC14129 | 10.6 | 21.5 | 850
Hers + amn | DRSC20306 | 4.26 | 4.3 | 5253
CG14329 | DRSC14808 | 1.45 | 0.37 | 6402
zetaCOP (Coat Protein (coatomer) zeta) | DRSC11412 | 0.27 | 0.65 | 1498
CG30151 | DRSC05888 | 0.33 | 0.05 | 6435
CG30151 | DRSC24759 | 15.1 | 11.3 | 6060
Pih1D1 (PIH1 domain containing 1) | DRSC02897 | 5.55 | 3.6 | 6780
Pih1D1 (PIH1 domain containing 1) | DRSC28212 | 5.7 | 6.72 | 2651
CG4459 | DRSC15582 | 6.34 | 1.63 | 5927
Cpr65Eb (Cuticular protein 65Eb) | DRSC11026 | 4.32 | 3.28 | 6185
Cpr65Eb (Cuticular protein 65Eb) | DRSC23758 | 8.13 | 12.2 | 6532
Nop60B (Nucleolar protein at 60B) | DRSC04627 | 15.1 | 46.7 | 5751
CG2701 | DRSC18590 | 2.83 | 8.05 | 6567
Ant2 (Adenine nucleotide translocase 2) | DRSC19330 | 8.71 | 5.8 | 6932
Ant2 (Adenine nucleotide translocase 2) | DRSC26446 | 1.64 | 7.77 | 6809
Mis12 | DRSC10299 | 4.95 | 1.66 | 6177
Acp53C14a (Accessory gland protein 53C14a) | DRSC07224 | 9.18 | 15 | 6712
Cyp4aa1 (Cytochrome P450 4aa1) | DRSC07368 | 5.74 | 7.88 | 6688
Cyp4aa1 (Cytochrome P450 4aa1) | DRSC27648 | 7.87 | 7.36 | 3114
CG10953 | DRSC28267 | 19.7 | 14.1 | 5996
Def (Defensin) | DRSC07398 | 28.9 | 2.68 | 5280
CG32756 | DRSC23271 | 1.92 | 11.3 | 6088
CG32756 | DRSC25978 | 1.61 | 6.65 | 6969
CG33282 | DRSC00422 | 15 | 23.2 | 6553
fzr (fizzy-related) | DRSC18781 | 9.92 | 24.6 | 5807
fzr (fizzy-related) | DRSC28236 | 24 | 12.6 | 5561
CG12541 | DRSC17839 | 2.01 | 1.3 | 6257
CG12541 | DRSC28362 | 9.31 | 30.8 | 1944
nvy (nervy) | DRSC04705 | 22.3 | 12.4 | 6205
CG8229 + CG33199 | DRSC05134 | 0.9 | 1.78 | 6581
CG8229 + CG33199 | DRSC27680 | 9.32 | 16.9 | 6350
CG18180 | DRSC10304 | 5.18 | 3.09 | 6063
CG18180 | DRSC25404 | 7.34 | 3.31 | 6088
Usp12-46 (Ubiquitin-specific protease 12/46) | DRSC16175 | 0.41 | 1.23 | 6272
CG1324 | DRSC20496 | 4.49 | 2.83 | 6030
CG1324 | DRSC25582 | 7.2 | 4.97 | 6219
DnaJ-1 (DnaJ-like-1) | DRSC11145 | 2.28 (active) | 1.05 | 6364
CG8188 | DRSC20090 | 2.41 | 4.7 | 6254
CG8188 | DRSC27721 | 15.1 | 7.98 | 5989

A stretch of the results above, for reference:
target | dsRNA | infection score, replicate 1 | infection score, replicate 2 | cell count, replicate 1
Sox15 (Sox box protein 15) | DRSC28528 | 17.3 | 14.4 | 6501
Not10 (CCR4-NOT transcription complex subunit 10) | DRSC14129 | 10.6 | 21.5 | 850
Hers + amn | DRSC20306 | 4.26 | 4.3 | 5253
CG14329 | DRSC14808 | 1.45 | 0.37 | 6402
zetaCOP (Coat Protein (coatomer) zeta) | DRSC11412 | 0.27 | 0.65 | 1498
CG30151 | DRSC05888 | 0.33 | 0.05 | 6435
CG30151 | DRSC24759 | 15.1 | 11.3 | 6060
Pih1D1 (PIH1 domain containing 1) | DRSC02897 | 5.55 | 3.6 | 6780
Pih1D1 (PIH1 domain containing 1) | DRSC28212 | 5.7 | 6.72 | 2651
